Results published in patent US20260250325A1, “Antiviral Polypeptide Membrane Fusion Inhibitor, and Preparation Method and Application Thereof” (priority 2025, published 2026).
Where a SMILES comes first, the peptide text is derived from it. [ ]: non-standard residue; d: D form. The star is where a group is joined. ξ: configuration not given here. Succinyl(4-O-cholesteryl) = CC(C)CCC[C@@H](C)[C@H]1CC[C@H]2[C@@H]3CC=C4C[C@@H](OC(=O)CCC(=O)*)CC[C@]4(C)[C@H]3CC[C@]12C; ξD = NC(CC(=O)O)C(=O)O

The compounds below were run on RSV A long virus strain. Settings: CC50/IC50, HEp-2 cells.
Type: cell-based
Method: In this embodiment, an RSV-A long virus strain was used as an infection virus in the present disclosure. The anti-RSV activity of the synthesized polypeptide was determined through CPE detection.
The inhibitory activity of the compounds of Table 1-1-Table 1-5, positive polypeptide in Table 1-11, and positive control T-118 against the RSV-A long virus strain was detected.
Human Epithelial Pharyngeal Carcinoma Cells (HEp-2) were from the American Type Culture Collection (ATCC), with a catalog number CCL-23. The cells were cultured in a DMEM culture solution in which 10% fetal bovine serum, 1% sodium pyruvate, 1% nonessential amino acids, 2 mM glutamine, 100 U/mL penicillin, and 100 μg/mL streptomycin were added. The RSV A long virus strain was from the ATCC, with a catalog number VR-26.
This study used a plaque reduction experiment to detect the in-vitro activity of a test sample against the RSV A long virus strain. The test sample and a control compound were tested at 8 concentrations in duplicated wells. The HEp-2 cells were digested with trypsin and then diluted to a concentration of 300,000 cells per milliliter by using an experimental culture solution. The diluted cells were added to a 96-well cell test board, with 100 μL per well, corresponding to 30000 cells per well. The cells were cultured overnight in a 37° C. incubator with 5% CO2. On the second day, the test sample was diluted in an experimental culture medium at a fold ratio. The sample diluted at a fold ratio and an equal volume of virus (100 PFU per well) were well mixed and incubated at 37° C. in 5% CO2 for 1 h. Then, the culture solution in the 96-well cell test board was discarded, the sample virus mixed solution (200 μL) was added to the 96-well cell culture plate, and incubated at 37° C. in 5% CO2 for 2 hours. After 2 h, the sample virus mixed solution was discarded, and 200 μL of maintenance culture medium containing 0.8% CMC and the corresponding concentration of the test sample was added. A cell control (cells, without compound treatment or viral infection) and a viral control (cell infection virus, without compound treatment) were set. The cells were cultured for 1 day in the 37° C. incubator with 5% CO2. One day after viral infection, the culture medium was discarded, the cells were fixed with 4% paraformaldehyde, and then permeabilization was performed with 0.5% Triton X-100. After the plate was washed with DPBS, an RSV-specific antibody (RSV antibody, diluted 1:3000) was added and incubated at 37° C. for 1 h. Then, a secondary antibody (donkey anti-goat IgG, diluted 1:500) and incubated at 37° C. for 1 h. The secondary antibody was discarded, a TrueBlue solution was added, dyeing was performed for 10 min; and the plate was washed with running water and then air-dried, and the number of spots in each well was counted by using a microplate imaging counter. Raw data was used for calculating the antiviral activity of the samples.
The raw data for plaque counts and cell viability tests were used for analyzing the antiviral activity and cytotoxicity of the test samples, respectively. A calculation formula was shown as follows.
% inhibition rate=100−(sample value-cell control average value)/(virus control average value-cell control average value)×100%
Non-linear fitting analysis was performed on the inhibition rate of the sample by using GraphPad Prism (version 10), so as to calculate the IC50 and CC50 values for the sample.
IC50: in an in-vitro antiviral activity experiment, IC50 represented an inhibition ability indicator of a compound to be tested against the Hep-2 cells infected by the RSV A long virus strain.

Structure (SMILES) | Safety index (SI)
CC[C@H](C)[C@H](NC(=O)[C@H](CCCCN)NC(=O)[C@H](CCCCN)NC(=O)[C@H](CC(C)C)NC(=O)[C@H](CO)NC(=O)[C@H](CCC(=O)O)NC(=O)[C@H](CCC(=O)O)NC(=O)[C@@H](NC(=O)[C@H](CCCCN)NC(=O)[C@H](CCCCN)NC(=O)[C@H](CC(N)=O)NC(=O)[C@@H](NC(=O)[C@H](CCC(=O)O)NC(=O)[C@H](CCC(=O)O)NC(=O)[C@@H](NC(=O)[C@H](CCCCN)NC(=O)[C@H](CCCCN)NC(=O)[C@H](CCCCN)NC(=O)[C@H](CC(=O)O)NC(=O)[C@H](Cc1ccccc1)NC(=O)[C@H](CCC(=O)O)NC(=O)[C@H](CC(=O)O)NC(C)=O)[C@@H](C)CC)C(C)C)[C@@H](C)CC)C(=O)N[C@@H](CCC(=O)O)C(=O)N[C@@H](CCC(=O)O)C(=O)N[C@@H](CO)C(=O)N[C@@H](CC(=O)O)C(=O)N[C@@H](CCCCN)C(=O)N[C@@H](CCCCN)C(=O)N[C@@H](CC(C)C)C(=O)N[C@@H](CCC(=O)O)C(=O)N[C@@H](CCC(=O)O)C(=O)N[C@H](C(=O)NCC(=O)N[C@@H](CO)C(=O)NCC(=O)N[C@@H](CO)C(=O)NCC(=O)N[C@@H](CCCCNC(=O)CCC(=O)O[C@H]1CC[C@@]2(C)C(=CC[C@H]3[C@@H]4CC[C@H]([C@H](C)CCCC(C)C)[C@@]4(C)CC[C@@H]32)C1)C(N)=O)C(C)C [Compound 15] (Ac-DEFDKKKIEEVNKKIEESLKKIEESDKKLEEVGSGSGK(Succinyl(4-O-cholesteryl))-NH2) | 856
CC[C@H](C)[C@H](NC(=O)[C@H](CCCCN)NC(=O)[C@H](CCCCN)NC(=O)[C@H](CC(C)C)NC(=O)[C@H](CO)NC(=O)[C@H](CCC(=O)O)NC(=O)[C@H](CCC(=O)O)NC(=O)[C@@H](NC(=O)[C@H](CCCCN)NC(=O)[C@H](CCCCN)NC(=O)[C@H](CC(N)=O)NC(=O)[C@@H](NC(=O)[C@H](CCC(=O)O)NC(=O)[C@H](CCC(=O)O)NC(=O)[C@@H](NC(=O)[C@H](CCCCN)NC(=O)[C@H](CCCCN)NC(=O)[C@H](CC(=O)O)NC(=O)[C@H](Cc1ccccc1)NC(=O)[C@H](CCC(=O)O)NC(=O)[C@H](CC(=O)O)NC(=O)[C@H](CO)NC(C)=O)[C@@H](C)CC)C(C)C)[C@@H](C)CC)C(=O)N[C@@H](CCC(=O)O)C(=O)N[C@@H](CCC(=O)O)C(=O)N[C@@H](CO)C(=O)N[C@@H](CC(=O)O)C(=O)N[C@@H](CCCCN)C(=O)N[C@@H](CCCCN)C(=O)N[C@@H](CC(C)C)C(=O)N[C@@H](CCC(=O)O)C(=O)N[C@@H](C)C(=O)N[C@@H](C)C(=O)N[C@@H](C)C(=O)N[C@@H](CCCCN)C(=O)N[C@@H](CCCCNC(=O)CCC(=O)O[C@H]1CC[C@@]2(C)C(=CC[C@H]3[C@@H]4CC[C@H]([C@H](C)CCCC(C)C)[C@@]4(C)CC[C@@H]32)C1)C(N)=O [Compound 16] (Ac-SDEFDKKIEEVNKKIEESLKKIEESDKKLEAAAKK(Succinyl(4-O-cholesteryl))-NH2) | 1655
CC[C@H](C)[C@H](NC(=O)[C@H](CCCCN)NC(=O)[C@H](CCCCN)NC(=O)[C@H](CC(C)C)NC(=O)[C@H](CO)NC(=O)[C@H](CCC(=O)O)NC(=O)[C@H](CCC(=O)O)NC(=O)[C@@H](NC(=O)[C@H](CCCCN)NC(=O)[C@H](CCCCN)NC(=O)[C@H](CC(N)=O)NC(=O)[C@@H](NC(=O)[C@H](CCC(=O)O)NC(=O)[C@H](CCC(=O)O)NC(=O)[C@@H](NC(=O)[C@H](CCCCN)NC(=O)[C@H](CCCCN)NC(=O)[C@H](CC(=O)O)NC(=O)[C@H](Cc1ccccc1)NC(=O)[C@H](CCC(=O)O)NC(=O)C(CC(=O)O)NC(C)=O)[C@@H](C)CC)C(C)C)[C@@H](C)CC)C(=O)N[C@@H](CCC(=O)O)C(=O)N[C@@H](CCC(=O)O)C(=O)N[C@@H](CO)C(=O)N[C@@H](CC(=O)O)C(=O)N[C@@H](CCCCN)C(=O)N[C@@H](CCCCN)C(=O)N[C@@H](CC(C)C)C(=O)N[C@@H](CCC(=O)O)C(=O)N[C@@H](C)C(=O)N[C@@H](C)C(=O)N[C@@H](C)C(=O)N[C@@H](CCCCN)C(=O)N[C@@H](CCCCNC(=O)CCC(=O)O[C@H]1CC[C@@]2(C)C(=CC[C@H]3[C@@H]4CC[C@H]([C@H](C)CCCC(C)C)[C@@]4(C)CC[C@@H]32)C1)C(N)=O (some centres unmarked) [Compound 17] (Ac-[ξD]EFDKKIEEVNKKIEESLKKIEESDKKLEAAAKK(Succinyl(4-O-cholesteryl))-NH2) | 1497
CC[C@H](C)[C@H](NC(=O)[C@H](CCCCN)NC(=O)[C@H](CCCCN)NC(=O)[C@H](CC(C)C)NC(=O)[C@H](CO)NC(=O)[C@H](CCC(=O)O)NC(=O)[C@H](CCC(=O)O)NC(=O)[C@@H](NC(=O)[C@H](CCCCN)NC(=O)[C@H](CCCCN)NC(=O)[C@H](CC(N)=O)NC(=O)[C@@H](NC(=O)[C@H](CCC(=O)O)NC(=O)[C@H](CCC(=O)O)NC(=O)[C@@H](NC(=O)[C@H](CCCCN)NC(=O)[C@H](CCCCN)NC(=O)[C@H](CCCCN)NC(=O)[C@H](CC(=O)O)NC(=O)[C@H](Cc1ccccc1)NC(=O)[C@H](CCC(=O)O)NC(=O)C(CC(=O)O)NC(C)=O)[C@@H](C)CC)C(C)C)[C@@H](C)CC)C(=O)N[C@@H](CCC(=O)O)C(=O)N[C@@H](CCC(=O)O)C(=O)N[C@@H](CO)C(=O)N[C@@H](CC(=O)O)C(=O)N[C@@H](CCCCN)C(=O)N[C@@H](CCCCN)C(=O)N[C@@H](CC(C)C)C(=O)N[C@@H](CCC(=O)O)C(=O)N[C@@H](CCC(=O)O)C(=O)N[C@H](C(=O)NCC(=O)N[C@@H](CO)C(=O)NCC(=O)N[C@@H](CO)C(=O)NCC(=O)N[C@@H](CCCCNC(=O)CCC(=O)O[C@H]1CC[C@@]2(C)C(=CC[C@H]3[C@@H]4CC[C@H]([C@H](C)CCCC(C)C)[C@@]4(C)CC[C@@H]32)C1)C(N)=O)C(C)C (some centres unmarked) [Compound 18] (Ac-[ξD]EFDKKKIEEVNKKIEESLKKIEESDKKLEEVGSGSGK(Succinyl(4-O-cholesteryl))-NH2) | 333
CC[C@H](C)[C@H](NC(=O)[C@H](CCCCN)NC(=O)[C@H](CCCCN)NC(=O)[C@H](CC(C)C)NC(=O)[C@H](CO)NC(=O)[C@H](CCC(=O)O)NC(=O)[C@H](CCC(=O)O)NC(=O)[C@@H](NC(=O)[C@H](CCCCN)NC(=O)[C@H](CCCCN)NC(=O)[C@H](CC(N)=O)NC(=O)[C@@H](NC(=O)[C@H](CCC(=O)O)NC(=O)[C@H](CCC(=O)O)NC(=O)[C@@H](NC(=O)[C@H](CCCCN)NC(=O)[C@H](CCCCN)NC(=O)[C@H](CC(=O)O)NC(=O)[C@H](Cc1ccccc1)NC(=O)[C@H](CCC(=O)O)NC(=O)[C@H](CC(=O)O)NC(=O)[C@H](CO)NC(C)=O)[C@@H](C)CC)C(C)C)[C@@H](C)CC)C(=O)N[C@@H](CCC(=O)O)C(=O)N[C@@H](CCC(=O)O)C(=O)N[C@@H](CO)C(=O)N[C@@H](CC(=O)O)C(=O)N[C@@H](CCCCN)C(=O)N[C@@H](CCCCN)C(=O)N[C@@H](CC(C)C)C(=O)NCC(=O)N[C@@H](CO)C(=O)NCC(=O)N[C@@H](CO)C(=O)NCC(=O)N[C@@H](CCCCNC(=O)CCC(=O)O[C@H]1CC[C@@]2(C)C(=CC[C@H]3[C@@H]4CC[C@H]([C@H](C)CCCC(C)C)[C@@]4(C)CC[C@@H]32)C1)C(N)=O [Compound 20] (Ac-SDEFDKKIEEVNKKIEESLKKIEESDKKLGSGSGK(Succinyl(4-O-cholesteryl))-NH2) | 1470
